The data set is described as follows: general procedure: Fmoc solid-phase peptide synthesis; PAL-PEG-PS resin. The conditions noted are these: conjugation step.

Strings that start with PEPTIDE1 are HELM notation: dots part the residues, brackets hold end groups and non-standard residues.

This passage reports conjugation yield results from US7728106B2 (University of Maryland Biotechnology Institute, priority 2005, dated 2010).

Substance “PEPTIDE1{T.S.V.E.I.[AsnG2M3].C.T.R.P.N.N.N.T.R.K.R.I.R.I.Q.R.G.P.G.R.A.F.V.T.I.G.K.I.G.N.M.R.Q.A.H.C.[AsnG2M3].I.S.R.A.[am]}$PEPTIDE1,PEPTIDE1,7:R3-42:R3$$$V2.0” returned a conjugation yield of 72%.
